Results on one compound are retold here after US9499821B2, “Preventing or treating viral infection using an inhibitor of the LSD1 protein, a MAO inhibitor or an inhibitor of LSD1 and a MAO inhibitor” (The United States of America, as represented by the …, priority 2008, dated 2016).

The test system of this data set is Adenovirus Type 5. To be noted: HeLa cells. Here is the method:
Viral infection and treatment with TCP: HeLa cells (2×10^6) were treated with control DMSO (D) or 2 mM Tranylcypromine (T) for 5 hours prior to infection with various amounts of Adenovirus Type 5 (1.2×10^8, 2.3×10^8, and 4.5×10^8 NAS IU) for 2 or 4 hours. Equal amounts of infected cell lysates were resolved by SDS-PAGE and Western blotted with anti-E1A, anti-LSD1, and anti-β tubulin antibodies. HEK293 and uninfected HeLa cell lysates represented E1A positive and negative controls.
HeLa cells (2×10^6) were treated with control DMSO (D) or various concentrations of Tranylcypromine (TCP) for 5 hours prior to infection with 2.3×10^9 NAS IU of adenovirus Type 5 for 2 hours. Equal amounts of infected cell lysates were resolved by SDS-PAGE and Western blotted with anti-E1A, anti-β Tubulin, and anti-TBP antibodies.

Take `N[C@@H]1C[C@H]1c1ccccc1` (racemic) [TCP, Tranylcypromine]: the “levels of the controls LSD1 and β-Tubulin” value (2 mM) is reported as “no significant impact”. In addition, the “levels of the control TBP and β-Tubulin proteins” value (various concentrations of TCP) is listed as “no significant impact”.
